For at least one entry, the source does not settle the construct or the ends of the probe. At least one verdict was read from the data and is not stated in words by the source. Protein sequences can lack the tags named with them.
Target: T1, E2 (UniProt P03120)
T1 sequence (looked up): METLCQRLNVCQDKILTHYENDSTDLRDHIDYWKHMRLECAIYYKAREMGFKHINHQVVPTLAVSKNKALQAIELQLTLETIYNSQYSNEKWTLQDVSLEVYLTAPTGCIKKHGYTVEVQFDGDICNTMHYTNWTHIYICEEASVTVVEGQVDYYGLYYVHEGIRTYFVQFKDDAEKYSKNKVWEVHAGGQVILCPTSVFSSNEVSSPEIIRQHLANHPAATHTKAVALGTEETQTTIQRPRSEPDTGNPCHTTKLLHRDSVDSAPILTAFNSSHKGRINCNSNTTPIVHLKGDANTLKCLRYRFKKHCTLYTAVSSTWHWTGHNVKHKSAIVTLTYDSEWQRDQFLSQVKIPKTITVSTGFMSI
Assay: EMSA
Conditions: 4 mM Mg2+, 1.4 mM ATP, E2 2.8 nM, C1* complex; recombinant protein; residues 1-365; protein details: C-terminal 10xHis; label: 5' 32P

Sequence: GGCGGGACCGAAAACGGTTCAACCGAAAACGGTTATATATAAACCAGCCC (double strand) [Oligo II, E2 BS1+2 (50 bp)]
- binding result: binds

— article PMC12072466, “Mechanisms of Viral DNA Replication of Human Papillomavirus: E2 Protein-Dependent Recruitment of E1 DNA Helicase to the Origin of DNA Replication” (International Journal of Molecular Sciences, 2025)
